Test results as given in US20250353853A1, “FLAVIVIRUS INHIBITORS” (IRBM S.P.A., priority 2022, published 2025).
Counter-ions that a name gives are not always drawn.

Biological target: DEN2V NS2B-G4SG4-NS3 serine protease (Dengue virus type 2 (DENV-2), UniProt Q91H74)
Assay: DEN2V Protease Inhibition Assay

Q: Which IC50 does the source give for Cc1cc(C[n+]2cc([N-]C(=O)Nc3cccc(C(F)(F)F)c3)on2)ccc1-c1cncnc1 [Example 87, (3-(3-methyl-4-(pyrimidin-5-yl)benzyl)-1,2,3-oxadiazol-3-ium-5-yl)((3-(trifluoromethyl)phenyl)carbamoyl)amide] here?
A: 1000 to 20000 nM

Q: With Cc1cc(C[n+]2cc([N-]C(=O)Nc3cccc(C(F)(F)F)c3)on2)ccc1-c1c(C)noc1C [Example 88, (3-(4-(3,5-Dimethylisoxazol-4-yl)-3-methylbenzyl)-1,2,3-oxadiazol-3-ium-5-yl)((3-(trifluoromethyl)phenyl)carbamoyl)amide] as the compound, how does the IC50 read?
A: 100 to 1000 nM

Q: With Cc1nc(OCCO)ncc1-c1ccc(C[n+]2cc([N-]C(=O)Nc3cccc(C(F)(F)F)c3)on2)cc1 [Example 89, (3-(4-(2-(2-hydroxyethoxy)-4-methylpyrimidin-5-yl)benzyl)-1,2,3-oxadiazol-3-ium-5-yl)((3-(trifluoromethyl)phenyl)carbamoyl)amide] as the compound, how does the IC50 read?
A: 1000 to 20000 nM

Q: How did the IC50 turn out when COc1ncc(-c2ccc(C[n+]3cc([N-]C(=O)Nc4cccc(C(F)(F)F)c4)on3)cc2)c(C)n1 [Example 90, (3-(4-(2-Methoxy-4-methylpyrimidin-5-yl)benzyl)-1,2,3-oxadiazol-3-ium-5-yl)((3-(trifluoromethyl)phenyl)carbamoyl)amide] was run?
A: 100 to 1000 nM

Q: How did the IC50 turn out when O=C([N-]c1c[n+](Cc2ccc(-c3cncnc3C3CC3)cc2)no1)Nc1cccc(C(F)(F)F)c1 [Example 91, (3-(4-(4-cyclopropylpyrimidin-5-yl)benzyl)-1,2,3-oxadiazol-3-ium-5-yl)((3-(trifluoromethyl)phenyl)carbamoyl)amide] was run?
A: 100 to 1000 nM

Q: With Cc1ncccc1-c1ccc(C[n+]2cc([N-]C(=O)Nc3cccc(C(F)(F)F)c3)on2)cc1 [Example 92, (3-(4-(2-methylpyridin-3-yl)benzyl)-1,2,3-oxadiazol-3-ium-5-yl)((3-(trifluoromethyl)phenyl)carbamoyl)amide] as the compound, how does the IC50 read?
A: 100 to 1000 nM

Q: Which IC50 does the source give for Cc1cnncc1-c1ccc(C[n+]2cc([N-]C(=O)Nc3cccc(C(F)(F)F)c3)on2)cc1 [Example 93, (3-(4-(5-methylpyridazin-4-yl)benzyl)-1,2,3-oxadiazol-3-ium-5-yl)((3-(trifluoromethyl)phenyl)carbamoyl)amide] here?
A: 1000 to 20000 nM

Q: With Cc1noc(C)c1-c1cccc(C[n+]2cc([N-]C(=O)Nc3cccc(C(F)(F)F)c3)on2)c1 [Example 94, (3-(3-(3,5-dimethylisoxazol-4-yl)benzyl)-1,2,3-oxadiazol-3-ium-5-yl)((3-(trifluoromethyl)phenyl)carbamoyl)amide] as the compound, how does the IC50 read?
A: 1000 to 20000 nM

Q: How did the IC50 turn out when Cc1c(-c2ccc(C[n+]3cc([N-]C(=O)Nc4cccc(C(F)(F)F)c4)on3)cc2)cnn1C [Example 95, (3-(4-(1,5-dimethyl-1H-pyrazol-4-yl)benzyl)-1,2,3-oxadiazol-3-ium-5-yl)((3-(trifluoromethyl)phenyl)carbamoyl)amide] was run?
A: 1000 to 20000 nM

Q: Which IC50 does the source give for Cc1nn(C)cc1-c1ccc(C[n+]2cc([N-]C(=O)Nc3cccc(C(F)(F)F)c3)on2)cc1 [Example 96, (3-(4-(1,3-dimethyl-1H-pyrazol-4-yl)benzyl)-1,2,3-oxadiazol-3-ium-5-yl)((3-(trifluoromethyl)phenyl)carbamoyl)amide] here?
A: 1000 to 20000 nM

Q: For Cc1nn(C)c(C)c1-c1ccc(C[n+]2cc([N-]C(=O)Nc3cccc(C(F)(F)F)c3)on2)cc1 [Example 97], which IC50 is on record?
A: 100 to 1000 nM

Q: How did the IC50 turn out when Cc1ncn(C)c1-c1ccc(C[n+]2cc([N-]C(=O)Nc3cccc(C(F)(F)F)c3)on2)cc1 [Example 98, (3-(4-(1,4-dimethyl-1H-imidazol-5-yl)benzyl)-1,2,3-oxadiazol-3-ium-5-yl)((3-(trifluoromethyl)phenyl)carbamoyl)amide] was run?
A: 1000 to 20000 nM

Q: Which IC50 does the source give for Cc1noc(C)c1-c1ccc([C@H](CN)[n+]2cc([N-]C(=O)Nc3cccc(C(F)(F)F)c3)on2)cc1 [Example 99, (R)-(3-(2-amino-1-(4-(3,5-dimethylisoxazol-4-yl)phenyl)ethyl)-1,2,3-oxadiazol-3-ium-5-yl)((3-(trifluoromethyl)phenyl)carbamoyl)amide formate] here?
A: 1000 to 20000 nM

Q: With O=C([N-]c1c[n+](Cc2csc(-c3cncnc3)c2)no1)Nc1cccc(C(F)(F)F)c1 [Example 100, (3-((5-(pyrimidin-5-yl)thiophen-3-yl)methyl)-1,2,3-oxadiazol-3-ium-5-yl)((3-(trifluoromethyl)phenyl)carbamoyl)amide] as the compound, how does the IC50 read?
A: 1000 to 20000 nM

Q: Which IC50 does the source give for Cc1cc(C[n+]2cc([N-]C(=O)Nc3cccc(C(F)(F)F)c3)on2)ccc1-c1cncnc1C [Example 101, (3-(3-methyl-4-(4-methylpyrimidin-5-yl)benzyl)-1,2,3-oxadiazol-3-ium-5-yl)((3-(trifluoromethyl)phenyl)carbamoyl)amide] here?
A: 1000 to 20000 nM

Q: How did the IC50 turn out when NC[C@@H](c1ccc(-c2cncnc2)cc1)[n+]1cc([N-]C(=O)Nc2cccc(C(F)(F)F)c2)on1 [Example 102, (R)-(3-(2-amino-1-(4-(pyrimidin-5-yl)phenyl)ethyl)-1,2,3-oxadiazol-3-ium-5-yl)((3-(trifluoromethyl)phenyl)carbamoyl)amide formate] was run?
A: 1000 to 20000 nM

Q: O=C([N-]c1c[n+](Cc2ccc(-c3cncnc3)nc2)no1)Nc1cccc(C(F)(F)F)c1 [Example 103, (3-((6-(pyrimidin-5-yl)pyridin-3-yl)methyl)-1,2,3-oxadiazol-3-ium-5-yl)((3-(trifluoromethyl)phenyl)carbamoyl)amide] was tested. Which IC50 did it give?
A: 1000 to 20000 nM

Q: Cc1noc(C)c1-c1ccc(C[n+]2cc([N-]C(=O)Nc3cccc(C(F)(F)F)c3)on2)cn1 [Example 104, (3-((6-(3,5-dimethylisoxazol-4-yl)pyridin-3-yl)methyl)-1,2,3-oxadiazol-3-ium-5-yl)((3-(trifluoromethyl)phenyl)carbamoyl)amide] was tested. Which IC50 did it give?
A: 1000 to 20000 nM

Q: Cc1ncc(-c2ccc(C[n+]3cc([N-]C(=O)Nc4cccc(C(F)(F)F)c4)on3)cc2)n1C [Example 105, (3-(4-(1,2-dimethyl-1H-imidazol-5-yl)benzyl)-1,2,3-oxadiazol-3-ium-5-yl)((3-(trifluoromethyl)phenyl)carbamoyl)amide] was tested. Which IC50 did it give?
A: 1000 to 20000 nM

Q: For N#Cc1ncncc1-c1ccc(C[n+]2cc([N-]C(=O)Nc3cccc(C(F)(F)F)c3)on2)cc1 [Example 106, (3-(4-(4-cyanopyrimidin-5-yl)benzyl)-1,2,3-oxadiazol-3-ium-5-yl)((3-(trifluoromethyl)phenyl)carbamoyl)amide], which IC50 is on record?
A: 1000 to 20000 nM

Q: How did the IC50 turn out when O=C([N-]c1c[n+](Cc2ccc(-c3c(F)nc[nH]c3=O)cc2)no1)Nc1cccc(C(F)(F)F)c1 [Example 107, (3-(4-(4-fluoro-6-oxo-1,6-dihydropyrimidin-5-yl)benzyl)-1,2,3-oxadiazol-3-ium-5-yl)((3-(trifluoromethyl)phenyl)carbamoyl)amide] was run?
A: 1000 to 20000 nM

Q: How did the IC50 turn out when O=C([N-]c1c[n+](Cc2ccc(-c3cncnc3)cn2)no1)Nc1cccc(C(F)(F)F)c1 [Example 108, (3-((5-(pyrimidin-5-yl)pyridin-2-yl)methyl)-1,2,3-oxadiazol-3-ium-5-yl)((3-(trifluoromethyl)phenyl)carbamoyl)amide] was run?
A: 1000 to 20000 nM

Q: With Cc1noc(C)c1-c1ccc(C[n+]2cc([N-]C(=O)Nc3cccc(C(F)(F)F)c3)on2)nc1 [Example 109, (3-((5-(3,5-dimethylisoxazol-4-yl)pyridin-2-yl)methyl)-1,2,3-oxadiazol-3-ium-5-yl)((3-(trifluoromethyl)phenyl)carbamoyl)amide] as the compound, how does the IC50 read?
A: 1000 to 20000 nM

Q: For Cc1ncncc1-c1csc(C[n+]2cc([N-]C(=O)Nc3cccc(C(F)(F)F)c3)on2)c1 [Example 110, (3-((4-(4-methylpyrimidin-5-yl)thiophen-2-yl)methyl)-1,2,3-oxadiazol-3-ium-5-yl)((3-(trifluoromethyl)phenyl)carbamoyl)amide], which IC50 is on record?
A: 1000 to 20000 nM

Q: With COc1ncnc(C)c1-c1ccc(C[n+]2cc([N-]C(=O)Nc3cccc(C(F)(F)F)c3)on2)cc1 [Example 111, (3-(4-(4-methoxy-6-methylpyrimidin-5-yl)benzyl)-1,2,3-oxadiazol-3-ium-5-yl)((3-(trifluoromethyl)phenyl)carbamoyl)amide] as the compound, how does the IC50 read?
A: 100 to 1000 nM

Q: Which IC50 does the source give for Cc1ncnc(OCCO)c1-c1ccc(C[n+]2cc([N-]C(=O)Nc3cccc(C(F)(F)F)c3)on2)cc1 [Example 112, (3-(4-(4-(2-hydroxyethoxy)-6-methylpyrimidin-5-yl)benzyl)-1,2,3-oxadiazol-3-ium-5-yl)((3-(trifluoromethyl)phenyl)carbamoyl)amide] here?
A: 1000 to 20000 nM

Q: For COc1ncc(-c2ccc(C[n+]3cc([N-]C(=O)Nc4cccc(Cl)c4)on3)cc2)c(C)n1 [Example 113, ((3-chlorophenyl)carbamoyl)(3-(4-(2-methoxy-4-methylpyrimidin-5-yl)benzyl)-1,2,3-oxadiazol-3-ium-5-yl)amide], which IC50 is on record?
A: 1000 to 20000 nM

Q: With Cc1noc(C)c1-c1ccc([C@@H](CN)[n+]2cc([N-]C(=O)Nc3cccc(C(F)(F)F)c3)on2)cc1 [Example 116, (S)-(3-(2-amino-1-(4-(3,5-dimethylisoxazol-4-yl)phenyl)ethyl)-1,2,3-oxadiazol-3-ium-5-yl)((3-(trifluoromethyl)phenyl)carbamoyl)amide formate] as the compound, how does the IC50 read?
A: 1000 to 20000 nM

Q: How did the IC50 turn out when O=C([N-]c1c[n+](Cc2ccc(-c3cnn(C4CCNCC4)c3)nc2)no1)Nc1cccc(C(F)(F)F)c1 [Example 117, (3-((6-(1-(piperidin-4-yl)-1H-pyrazol-4-yl)pyridin-3-yl)methyl)-1,2,3-oxadiazol-3-ium-5-yl)((3-(trifluoromethyl)phenyl)carbamoyl)amide] was run?
A: 1000 to 20000 nM

Q: With Cc1ncn(C)c1-c1ccc(C[n+]2cc([N-]C(=O)Nc3cccc(C(F)(F)F)c3)on2)nc1 [Example 118, (3-((5-(1,4-dimethyl-1H-imidazol-5-yl)pyridin-2-yl)methyl)-1,2,3-oxadiazol-3-ium-5-yl)((3-(trifluoromethyl)phenyl)carbamoyl)amide] as the compound, how does the IC50 read?
A: 1000 to 20000 nM

Q: Which IC50 does the source give for O=C([N-]c1c[n+](Cc2ccc(-c3cccc4c3CNC4)cn2)no1)Nc1cccc(C(F)(F)F)c1 [Example 119, (3-((5-(isoindolin-4-yl)pyridin-2-yl)methyl)-1,2,3-oxadiazol-3-ium-5-yl)((3-(trifluoromethyl)phenyl)carbamoyl)amide] here?
A: 1000 to 20000 nM

Q: How did the IC50 turn out when O=C([N-]c1c[n+](Cc2ccc(-c3cnn(C4CCNCC4)c3)cn2)no1)Nc1cccc(C(F)(F)F)c1 [Example 120, (3-((5-(1-(piperidin-4-yl)-1H-pyrazol-4-yl)pyridin-2-yl)methyl)-1,2,3-oxadiazol-3-ium-5-yl)((3-(trifluoromethyl)phenyl)carbamoyl)amide] was run?
A: 1000 to 20000 nM
